Pooled drug test results. Numbers come from NIAID ChemDB, via PubChem.

Common to all: tests in culture; species: Mycobacterium kansasii; measure: MIC

Rows are shuffled and stem from different studies.

smiles	conditions	strain or isolate	method	value
CCCc1cnc(C(=O)/C=C/c2ccc(Cl)cc2)cn1	-	Hauduroy	absorbance	12.5 µg/mL
CC(C)=CCC/C(C)=C/CNCCNC1C2CC3CC(C2)CC1C3	-	T	broth dilution	16 µg/mL
C[C@H]1COC2(CCN(c3nc(=O)c4cc(C(F)(F)F)cc([N+](=O)[O-])c4s3)CC2)O1	-	ATCC 12478	resazurin / fluorescence	<0.02 µg/mL
NNC(=O)c1ccncc1	-	Hauduroy	absorbance	3.13–12.5 µg/mL
O=C(Nc1ccc(C(F)(F)F)cc1)c1cc(Br)ccc1OP(=O)(c1ccccc1)c1ccccc1	7 d	My 235/80	-	4 µM
O=C(N/N=C/N1CCN(c2cc3c(cc2F)c(=O)c(C(=O)O)cn3C2CC2)CC1)c1ccc(C(F)(F)F)cc1	14 d	235/80	-	1 µM
CCCCc1cnc(C(=O)/C=C/c2ccc(Cl)cc2)cn1	-	Hauduroy	absorbance	12.5 µg/mL
O=C(Nc1ccc(Cl)c(Cl)c1)c1cc(Cl)ccc1OP(=O)(Oc1ccccc1)Oc1ccccc1	7 d	My 6509/96	-	4 µM
CC(C)(C)c1cnc(C(=O)/C=C/c2ccc(F)cc2)cn1	-	Hauduroy	absorbance	>25 µg/mL
C=C1C(=O)N[C@@H](CC(C)C)C(=O)N[C@H](CC(C)C)C(=O)N[C@H](C(=O)O)[C@H](C)C(=O)N[C@H](CCCN=C(N)N)C(=O)N[C@@H](/C=C/C(C)=C/[C@H](C)[C@H](Cc2ccccc2)OC)[C@@H](C)C(=O)N[C@@H](C(=O)O)CCC(=O)N1C	-	-	resazurin	0.42 µM
COc1cc(=O)n(C)c2ccccc12	-	ATCC 12478	broth dilution / resazurin	10600 µM
CC[C@@H](CO)NCCN[C@@H](CC)CO	-	ATCC 35775	broth dilution	0.5 µg/mL
O=C(/C=C/c1ccc(Br)cc1)c1cnccn1	-	Hauduroy	absorbance	12.5 µg/mL
O=C(N[C@@H]([C@H](O)CNCc1cccc(I)c1)C(F)(F)c1ccccc1)OCc1ccccc1	-	ATCC 35775	broth dilution	32 µg/mL
O=C(Nc1ccccc1)c1ccccc1OP(=O)(OCc1ccccc1)OCc1ccccc1	7 d	My 235/80	-	250 µM
CCCCc1cnc(C(=O)/C=C/c2ccc(Br)cc2)cn1	-	Hauduroy	absorbance	>50 µg/mL
O=C(Nc1ccc(C(F)(F)F)cc1)c1cc(Cl)ccc1OP(=O)(OCc1ccccc1)OCc1ccccc1	7 d	My 6509/96	-	16 µM
COc1cc(O)cc(/C=C/c2cc3ccccc3s2)c1	-	-	broth dilution	16 µg/mL

The first 2 rows once more:

| smiles | conditions | strain or isolate | method | value |
|---|---|---|---|---|
| CCCc1cnc(C(=O)/C=C/c2ccc(Cl)cc2)cn1 | - | Hauduroy | absorbance | 12.5 µg/mL |
| CC(C)=CCC/C(C)=C/CNCCNC1C2CC3CC(C2)CC1C3 | - | T | broth dilution | 16 µg/mL |

a–b is a range or a potency band. An empty or dashed field is not shown.